Data reported in patent US20100292343A1, “USE OF A DIALKYLKETONE PEROXIDE AS BIOCIDAL, STERILIZING, ANTISEPTIC, DISINFECTING AND ANTI-PARASITIC AGENT” (published 2010).
Only a part of the results on these compounds is given; other tests are left out.

Columns and labels:
[1] = tested on: Aspergillus niger ATCC 16404; experiment: Fungicidal activity, EN 1275
[2] = tested on: Candida albicans ATCC 10321; experiment: Fungicidal activity, EN 1275
[3] = tested on: Enterococcus hirae ATCC 8043; experiment: Bactericidal activity, EN 1276 dilution-neutralisation
[4] = tested on: Escherichia coli ATCC 10536; experiment: as above
[5] = tested on: Pseudomonas aeruginosa ATCC 15442; experiment: as above
[6] = tested on: Staphylococcus aureus ATCC 6538; experiment: as above
[7] = tested on: Mycobacterium terrae ATCC 15755; experiment: Mycobactericidal activity, carrier disk ASTM E-2197-02; conditions: 2% and 4% at 5, 15 and 30 minutes

## methyl ethyl ketone peroxide
[1]; 0.06% (v/v), t = 15 min
  Na: number of CFU/ml in the assay mixture: 0.2 × 10^2 CFU/ml
[1]; 0.06% (v/v), t = 30 min
  Na: number of CFU/ml in the assay mixture: 0.6 × 10^2 CFU/ml
[1]; 0.25% (v/v), t = 5 min
  Na: number of CFU/ml in the assay mixture: 0 CFU/ml
[1]; norm EN 1275
  fungicidal activity (conclusion): fungicidal activity
[2]; 0.06% (v/v), t = 30 min
  R: Reduction of viability: 0.9 × 10^4
[2]; 0.125% (v/v), t = 5 min
  R: Reduction of viability: 15 × 10^4
[2]; 0.125% (v/v), t = 30 min
  Na: number of CFU/ml in the assay mixture: 0 CFU/ml
[2]; 0.25% (v/v), t = 15 min
  Na: number of CFU/ml in the assay mixture: 0 CFU/ml
[3]; 0.06% (v/v), t = 5 min
  Na: number of CFU/ml in the assay mixture: 24 × 10^2 CFU/ml
  R: Reduction of viability: 0.1 × 10^5
[3]; 0.25% (v/v), t = 15 min
  R: Reduction of viability: ≧10^6
[4]; 0.06% (v/v), t = 15 min
  Na: number of CFU/ml in the assay mixture: 0 CFU/ml
[4]; 0.25% (v/v), t = 5 min
  Na: number of CFU/ml in the assay mixture: 0 CFU/ml
[4]; 0.25% (v/v), t = 30 min
  Na: number of CFU/ml in the assay mixture: 0 CFU/ml
  R: Reduction of viability: ≧10^6
[5]; 0.06% (v/v), t = 5 min
  R: Reduction of viability: 24 × 10^5
[5]; 0.125% (v/v), t = 5 min
  Na: number of CFU/ml in the assay mixture: 0 CFU/ml
[5]; 0.25% (v/v), t = 5 min
  Na: number of CFU/ml in the assay mixture: 0 CFU/ml
[5]; within 5, 15 and 30 minutes at 0.06% in hard water
  bactericidal activity (conclusion): bactericidal activity
[6]; 0.06% (v/v), t = 15 min
  R: Reduction of viability: 0.08 × 10^5
[6]; 0.125% (v/v), t = 5 min
  Na: number of CFU/ml in the assay mixture: 2.6 × 10^2 CFU/ml
[6]; 0.125% (v/v), t = 30 min
  R: Reduction of viability: ≧10^6
[6]; 0.25% (v/v), t = 30 min
  R: Reduction of viability: ≧10^6
[7]
  mycobactericidal effect (conclusion): mycobactericidal effect
